Data as given in PubChem BioAssay AID1259414 (Drosophila RNAi Screening Center, 2018)
The deposit covers about 24,000 reagents; shown is a random part of those that have a named target and a result. Of all reagents, about 1,210 (5%) are marked active. 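Inactive calls also include excluded dsRNAs with several or no targets, genes unexpressed in JW18, and well A1, regardless of score.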 A number with no mark means an inactive call. The numbers tell different reagents against one gene apart.

Screen: 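Genome-wide screen for host control of endosymbiont load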 (primary screen)
Cells: Drosophila JW18 cells infected with Wolbachia
Knock-down reagent: long dsRNA against Drosophila genes, 0.25 µg dsRNA per well of a 384-well plate
Time to read-out: 5 days
Conditions: cells persistently infected with Wolbachia before knock-down; no added drug
Measured: 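Automated imaging of bacterial rRNA staining divided by host cell count, reported as plate-normalised robust z-score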
Direction: Wolbachia per cell robust z: higher = more Wolbachia per host cell than the plate typical
Rule for the call: 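Hit when robust z is 1.5 or more, or -1.5 or less, in at least two of three replicates; excludes dsRNAs with several or no targets, genes not expressed in JW18 and well A1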

Gene | dsRNA no. | Wolbachia per cell robust z, rep 1 | Wolbachia per cell robust z, rep 2 | Wolbachia per cell robust z, rep 3
emb | 1 | -2.58 | -0.526 | 0.0155
Toll-6 | 1 | -0.23 | -0.705 | 1.21
CG17195 | 1 | 1.12 | 0.523 | -5.12
CG17195 | 2 | 0.22 | -0.143 | -1.28
CG13700 | 1 | -2.26 | -0.419 | 0.754
CG13700 | 2 | 0.301 | 0.18 | -0.619
CG12376 | 1 | -1.12 | -0.612 | -3.47
CG12376 | 2 | -0.556 | 0.0823 | -0.729
CG5662 | 1 | 0.628 | -1.07 | 0.674
CG13579 | 1 | 0.124 | -1.5 | 0.754
CG13579 | 2 | -0.291 | -0.619 | -0.71
l(2)gl | 1 | -1.84 | -0.00291 | 0.732
l(2)gl | 2 | -1.47 | -1.76 | -1.4
His3.3A | 1 | 1.66 (active) | 4.9 | 3.19
His3.3A | 2 | 0.203 | 0.343 | -1.04
CG10859 | 1 | 0.999 | 0.116 | 0.602
CG12355 | 1 | 0.631 | -0.921 | -0.0428
CG12355 | 2 | -5.29 | -0.986 | -0.301
CG31638 | 1 | 0.497 | 0.818 | -0.248
CG31638 | 2 | -0.331 | -0.5 | 0.226
CG31638 | 3 | 0.655 | 0.326 | 1.9
Hsdl2 | 1 | -0.765 | -0.446 | 1.17
Hsdl2 | 2 | 0.87 | 0.681 | -0.661
HLH4C | 1 | -0.413 | 0.52 | -2.08
HLH4C | 2 | 0.859 | 0.89 | 1.07
HLH4C | 3 | -0.571 | -1.71 | -0.275
CG18536 | 1 | 0.306 | -0.641 | -2.19
FDY | 1 | 0.681 | 0.77 | -0.277
Yp2 | 1 | 0.358 | -0.0508 | -0.397
Yp2 | 2 | -1.69 | -2.24 | -1.45
CG15657 | 1 | 0.674 | -5.06 | -0.513

Already shown: entries from further up.
Gene | dsRNA no. | Wolbachia per cell robust z, rep 1 | Wolbachia per cell robust z, rep 2 | Wolbachia per cell robust z, rep 3
CG5662 | 1 | 0.628 | -1.07 | 0.674
CG13579 | 1 | 0.124 | -1.5 | 0.754
CG13579 | 2 | -0.291 | -0.619 | -0.71
l(2)gl | 1 | -1.84 | -0.00291 | 0.732
l(2)gl | 2 | -1.47 | -1.76 | -1.4

The list goes on.
Gene | dsRNA no. | Wolbachia per cell robust z, rep 1 | Wolbachia per cell robust z, rep 2 | Wolbachia per cell robust z, rep 3
CG17883 | 1 | -0.315 | -0.959 | -0.699
RtcB | 1 | -0.27 | -0.17 | 0.267
CG17672 | 1 | 2.32 | 2.7 | 1.13
CG17672 | 2 | 0.459 | -0.811 | 0.221
mRpS30 | 1 | -2.82 (active) | -9.19 | 0.467
TwdlS | 1 | -2.33 | -0.979 | -0.721
dpr13 | 1 | -3.16 | -0.859 | 0.144
dpr13 | 2 | 0.0946 | -0.706 | 0.462
dpr13 | 3 | -0.281 | 0.517 | 0.564
CG6481 | 1 | -4.23 (active) | -1.52 | -4.16
Ir54a | 1 | 0.292 | 1.81 | -0.613
Snx6 | 1 | 0.252 | -0.244 | 0.133
Snx6 | 2 | 0.968 | 1.38 | 0.839
CG10280 | 1 | 0.471 | -1.63 | 0.0646
CG10280 | 2 | -0.844 | 0.268 | 0.87
Nrt | 1 | 0.0939 | -0.0293 | -1.04
CG4045 | 1 | -0.388 | 0.72 | -0.679
CCKLR-17D3 | 1 | 1.09 | 0.791 | 0.388
CCKLR-17D3 | 2 | 0.0104 | -0.53 | -0.296
CCKLR-17D3 | 3 | -0.342 | 0.378 | 0.461
wb | 1 | 1.44 | -0.0631 | 0.194
wb | 2 | -0.412 | -0.556 | -5.87
wb | 3 | -0.425 | 1.03 | 0.252
wb | 4 | -2.72 | 0.00317 | -0.183
Cmpk | 1 | 1.37 | 0.652 | 0.592
CG30075 | 1 | 0.93 | 1.23 | 0.565
CG17264 | 1 | -1.28 | -2.98 | -0.669
CG17264 | 2 | -0.407 | -0.0751 | -1.43
CG33784 | 1 | -3.84 | 0.55 | 1.49
dpr3 | 1 | -0.526 | -2.79 | -1.57
dpr3 | 2 | 0.0198 | 1.39 | -0.146
CG31019 | 1 | 0.511 | -0.705 | 1.33
CG31019 | 2 | -0.451 | -1.01 | 1.02
BOD1 | 1 | -5.48 | -3.25 | -3.3
BOD1 | 2 | -2.04 | -1.43 | -1.39
mgr | 1 | 0.777 | 0.875 | 0.692
CG33095 | 1 | -0.93 | 0.615 | -0.326
